Compound potency records, mixed from different reports. Data source: NIAID ChemDB in PubChem.

An empty or dashed field is not shown.

structure	test	agent	strain or isolate	cell line	target	read by	endpoint	tested at	value
COc1cc(NCCCNc2c3ccc(Cl)cc3nc3ccc(OC)cc23)c2ncccc2c1	culture	Mycobacterium tuberculosis	H37Rv	-	-	-	MIC	-	100 µg/mL
O=C(Nc1nnc(NCCCCc2ccccc2)s1)c1c(Cl)cccc1Cl	target	Human cytomegalovirus	-	-	Polymerase	-	IC50	-	>25 µM
CCN(CC)CCCNc1c(OC)cc(C)c2sc3ccccc3c(=O)c12.O=C(O)/C=C/C(=O)O	culture	Mycobacterium tuberculosis	H37Rv	-	-	BACTEC	MIC bound	-	>12.5 µg/mL
C/C(=C\C(=O)Nc1ccc(N)cc1)C(=O)O	culture	Mycobacterium tuberculosis	H37Rv	-	-	-	MIC	-	>100 µg/mL
COc1cc(C[C@H](C)[C@H](C)Cc2ccc(O)c(O)c2)ccc1O	culture	Candida lusitaniae	CCC 131-2000	-	-	broth dilution	MIC50	-	62.5 µg/mL
CC(=O)NCCNS(=O)(=O)c1ccc(C)cc1	culture	Mycobacterium tuberculosis	H37Rv	-	-	-	MIC	-	>100 µg/mL
COC12OCCN(CCO)C1=CC(=O)C1(C)N=NC(C)C12	culture	Mycobacterium tuberculosis	H37Rv	-	-	BACTEC	MIC bound	-	>12.5 µg/mL
O=C(Nc1nnc(NCCCCc2ccccc2)s1)c1ccc(F)cc1F	target	Human cytomegalovirus	-	-	Polymerase	-	IC50	-	>25 µM
Cc1cccc(N2CCN(c3cncc(-c4ccc(C(N)=O)cc4)n3)CC2C)c1	target	Cytomegalovirus	-	-	UL97 kinase	-	IC50	-	<10 µM
c1coc(-c2nc(N=C3N=c4ccccc4=N3)[nH]c2-c2ccco2)c1	culture	Mycobacterium tuberculosis	H37Rv	-	-	BACTEC	inhibition	12.5 µg/mL	69%
C=CCc1ccc(OC)c(OC)c1	culture	Candida tropicalis	2029	-	-	turbidity	MIC90	-	345 µg/mL
COc1ccc2nc(-c3cccc(Cl)c3)ccc2c1	culture	Mycobacterium tuberculosis	H37Rv	-	-	-	MIC	-	>100 µg/mL
O=C(COc1ccc([N+](=O)[O-])cc1)NN1C(=O)c2ccc([N+](=O)[O-])cc2C1=O	culture	Mycobacterium tuberculosis	H37Rv	-	-	resazurin	inhibition	6.25 µg/mL	9%
CCC(CC)[C@H](NC(C)=O)[C@@H]1[C@H](O)[C@@H](C(=O)O)C[C@H]1N=C(N)N	culture	Influenza A virus	Influenza A/Johannesburg/33/94 (H3N2)	MDCK	-	visual reading	EC50	-	0.07 µM
CCN(CC)c1ccc(-c2ccc3cc(Cl)ccc3n2)cc1	culture	Mycobacterium tuberculosis	H37Rv	-	-	-	MIC	-	>100 µg/mL
CCO/N=C/c1ccc(OCCC2CCN(c3ccc(C)nn3)CC2)cc1	culture	Rhinovirus	363 (ICAM-1 receptor group 32)	KB	-	neutral red	EC50	-	1.359 µM
CCCCCCCC/C=C/CCCCCCCC(=O)Nc1nnc(NCC2CCCO2)s1	target	Human cytomegalovirus	-	-	Polymerase	-	IC50	-	>25 µM
Nc1ccc(CS(=O)(=O)[O-])cc1.[Na+]	culture	Mycobacterium tuberculosis	H37Rv	-	-	-	MIC	-	>100 µg/mL
CC(=O)c1ccccc1-c1cncc(N2CCN(c3cccc(Cl)c3)CC2)n1	target	Cytomegalovirus	-	-	UL97 kinase	-	IC50	-	<100 µM
Cc1cc(O)c2c(c1)C(=O)C13C(=C2O)C(=O)C2C(O)C1C1C(O)C3C(=O)C3=C(O)c4c(O)cc(C)cc4C(=O)C321	culture	Mycobacterium tuberculosis	H37Rv	-	-	BACTEC	inhibition	12.5 µg/mL	3%
CNc1cccc2c1C(=O)c1cccc(NC)c1C2=O	culture	Mycobacterium tuberculosis	H37Rv	-	-	-	MIC	-	>100 µg/mL
c1ccc(N2CCN(c3cncc(-c4csc5ccccc45)n3)CC2)cc1	target	Cytomegalovirus	-	-	UL97 kinase	-	inhibition	1 µM	<50%
O=C1c2cccc(O)c2C(=O)c2c(O)cccc21	culture	Mycobacterium tuberculosis	H37Rv	-	-	-	MIC	-	>100 µg/mL
Cc1nn(C(=O)c2ccccc2O)c2c1C(c1ccco1)SC(N)=N2	culture	Mycobacterium tuberculosis	H37Rv	-	-	BACTEC	inhibition	12.5 µg/mL	14%
O=C(O)c1cc(-c2ccccc2O)nc2cc(S(=O)(=O)[O-])ccc12.[Na+]	culture	Mycobacterium tuberculosis	H37Rv	-	-	-	MIC	-	>100 µg/mL
CC(=O)c1cccc(-c2cncc(N3CCN(c4cccc(C)c4C)CC3)n2)c1	target	Cytomegalovirus	-	-	UL97 kinase	-	inhibition	10 µM	>15%
CC12CCC3C(CCC4(O)C=CCCC34C=O)C1(O)CC(O)C2c1ccc(=O)oc1	culture	Mycobacterium tuberculosis	H37Rv	-	-	BACTEC	inhibition	12.5 µg/mL	-2%
Cc1ccc(C(=O)Nc2nnc(NCCc3ccc(S(N)(=O)=O)cc3)s2)cc1	target	Human cytomegalovirus	-	-	Polymerase	-	IC50	-	>25 µM
CCOC(=O)c1csc(CCCCC(=O)O)c1N	culture	Mycobacterium tuberculosis	H37Rv	-	-	-	MIC	-	>100 µg/mL
Nc1ccn([C@@H]2O[C@H](C(O[C@@H]3O[C@H](CO)[C@@H](O)[C@H](N)[C@H]3O)[C@@H](O)[C@@H](O)[C@@H](O)[C@@H](O)CO)[C@@H](N)[C@H](O)[C@H]2O)c(=O)n1	culture	Mycobacterium tuberculosis	H37Rv	-	-	BACTEC	MIC	-	≥12.5 µg/mL
COC(=O)c1ccc(N)cc1C(=O)OC	culture	Mycobacterium tuberculosis	H37Rv	-	-	-	MIC	-	>100 µg/mL
O=C(Nc1nnc(NC2CCc3ccccc32)s1)c1ccc([N+](=O)[O-])o1	target	Human cytomegalovirus	-	-	Polymerase	-	IC50	-	>25 µM
O=C1c2ccccc2C(=O)c2c1cc(Cl)c1ccccc21	culture	Mycobacterium tuberculosis	H37Rv	-	-	-	MIC	-	>100 µg/mL
CC(=O)NCCNc1nnc(NC(=O)c2ccc3c(c2)C(=O)OC3=O)s1	target	Human cytomegalovirus	-	-	Polymerase	-	IC50	-	>25 µM
Cl.Cl.N=C(N)c1ccc(NC(=O)c2ccc(C(=O)Nc3ccc(C(=N)N)cc3)c(N)c2)cc1	culture	Mycobacterium tuberculosis	H37Rv	-	-	BACTEC	MIC bound	-	>12.5 µg/mL
Nc1ccc2cc(S(=O)(=O)O)cc(S(=O)(=O)O)c2c1	culture	Herpes simplex virus	-	Human conjunctiva cells	-	cytopathic effect	inhibition	50 µg/mL	0%
Fc1ccc(N2CCCCC2)c(NC(=S)c2ccncc2)c1	host protein	-	-	-	EGFR (T790M)	kinase activity	inhibition	10 µM	14%
O=C1CNC(=O)CN1	culture	Mycobacterium tuberculosis	H37Rv	-	-	-	MIC	-	>100 µg/mL
CSc1ccc(-c2cncc(N3CCC(c4ccccc4)CC3)n2)cc1	target	Cytomegalovirus	-	-	UL97 kinase	-	inhibition	1 µM	<50%
C#CC[C@@H](C(=O)N[C@H](/C=C/C(=O)OCC)C[C@@H]1CCNC1=O)n1cccc(NC(=O)c2cc(C)on2)c1=O	culture	Rhinovirus	Serotype 29	H1-HELA	-	cytopathic effect / XTT	EC50	-	0.059 µM
CC(=O)C1(N=Nc2ccc(S(=O)(=O)Nc3onc(C)c3C)cc2)CCOC1=O	culture	Mycobacterium tuberculosis	H37Rv	-	-	BACTEC	inhibition	12.5 µg/mL	4%
Brc1c2ccccc2c(Br)c2ccccc12	culture	Mycobacterium tuberculosis	H37Rv	-	-	-	MIC	-	>100 µg/mL
COc1cccc(-c2cncc(N3CCN(c4ccncc4)CC3)n2)c1	target	Cytomegalovirus	-	-	UL97 kinase	-	inhibition	1 µM	<50%
O=C(Nc1nnc(NCc2cccc3ccccc23)s1)c1cc2ccccc2s1	target	Human cytomegalovirus	-	-	Polymerase	-	IC50	-	>25 µM
NC(=O)c1ccc(-c2cncc(N3CCN(c4cccc(Cl)c4)CC3)n2)cc1	target	Cytomegalovirus	-	-	UL97 kinase	-	inhibition	1 µM	<50%
O=S(=O)([O-])c1ccc(NS(=O)(=O)c2ccccc2)c2c(S(=O)(=O)[O-])cccc12	culture	Herpes simplex virus	-	Human amnion AV3 cells	-	cytopathic effect	inhibition	50 µg/mL	30%
CSC(=S)N/N=C/c1cccc(C)n1	culture	Mycobacterium tuberculosis	TAC-R	-	-	-	MIC	-	>12.8 µg/mL
CCOC(=O)C(CCOc1ccccc1)C(=O)OCC	culture	Mycobacterium tuberculosis	H37Rv	-	-	-	MIC	-	12.5 µg/mL
CCCCNC(=S)S	culture	Mycobacterium tuberculosis	H37Rv	-	-	BACTEC	MIC bound	-	>12.5 µg/mL
O=C(Nc1ccc(S(=O)(=O)[O-])c2cccc(S(=O)(=O)[O-])c12)c1ccccc1	culture	Herpes simplex virus	-	Human amnion AV3 cells	-	cytopathic effect	inhibition	50 µg/mL	0%
Cc1ccc(N2CCN(c3cncc(-c4ccc(C(F)(F)F)cc4)n3)CC2)c(C)c1	target	Cytomegalovirus	-	-	UL97 kinase	-	IC50	-	<100 µM
O=S(=O)([O-])c1cc(S(=O)(=O)[O-])c2cc(NS(=O)(=O)c3ccccc3)ccc2c1	culture	Rhinovirus	-	Human embryonic lung cells	-	cytopathic effect	inhibition	10 µg/mL	10%
COc1cc([C@H]2c3cc(O)c(OC)cc3C[C@@H]3C(=O)OC[C@H]23)ccc1O	culture	Mycobacterium tuberculosis	H37Rv	-	-	BACTEC	inhibition	12.5 µg/mL	6%
O=S(=O)([O-])c1cc(O)c2ccccc2c1	culture	Adenovirus	TYPE 3	Human embryonic lung cells	-	cytopathic effect	inhibition	10 µg/mL	0%
Cc1ccc(NC(=O)c2cc(S(=O)(=O)Nc3nc4ncccc4[nH]3)c(SSc3cc(Cl)c(C(=O)Nc4ccc(C)cc4)cc3S(=O)(=O)Nc3nc4ncccc4[nH]3)cc2Cl)cc1	culture	Mycobacterium tuberculosis	H37Rv	-	-	resazurin	inhibition	6.25 µg/mL	28%
c1ccc([Si](c2ccccc2)(c2ccccc2)c2ccccc2)cc1	culture	Mycobacterium tuberculosis	H37Rv	-	-	-	MIC	-	100 µg/mL
Cn1ncc2c(c1=O)Nc1ccccc1S2(=O)=O	culture	Mycobacterium tuberculosis	H37Rv	-	-	BACTEC	MIC bound	-	>12.5 µg/mL
Cc1cc(C)c(N(C)C(=O)CCC(=O)O)c(Br)c1	culture	Mycobacterium tuberculosis	H37Rv	-	-	-	MIC	-	100 µg/mL
CC(O)c1ccc2c(c1)C(O)C[C@H]1[C@](C)(CO)CCC[C@]21C	culture	Mycobacterium tuberculosis	H37Rv	-	-	BACTEC	MIC bound	-	>12.5 µg/mL
CCOC(=O)/C(C#N)=C/Nc1cccc(C(F)(F)F)c1	culture	Mycobacterium tuberculosis	H37Rv	-	-	-	MIC	-	>100 µg/mL
NC1CCCCCCC1=O	culture	Mycobacterium tuberculosis	H37Rv	-	-	BACTEC	MIC bound	-	>12.5 µg/mL
COc1ccc2cc(-c3cncc(N4CCN(c5ccc(C(C)=O)cc5)CC4)n3)ccc2c1	target	Cytomegalovirus	-	-	UL97 kinase	-	inhibition	1 µM	<50%
Cc1cc(N=Nc2ccc(-c3ccc(N=Nc4ccc(O)c(C(=O)O)c4)cc3)cc2)c(N)c(N=Nc2ccc(C(=O)Nc3ccc(S(=O)(=O)O)cc3)cc2)c1N	culture	Mycobacterium tuberculosis	H37Rv	-	-	BACTEC	inhibition	12.5 µg/mL	1%
Cl.NCCOc1ccccc1	culture	Mycobacterium tuberculosis	H37Rv	-	-	-	MIC	-	400 µg/mL
Nc1nc(C(=O)O)cc(=O)[nH]1	culture	Mycobacterium tuberculosis	H37Rv	-	-	BACTEC	inhibition	12.5 µg/mL	0%
O=S(=O)([O-])c1ccccc1S(=O)(=O)[O-]	culture	Adenovirus	TYPE 3	Human embryonic lung cells	-	cytopathic effect	inhibition	50 µg/mL	0%
N=c1c2c(ncn1N)Oc1c(c(-c3ccccc3)nn1-c1ccccc1)C2c1ccc(Cl)cc1	culture	Mycobacterium tuberculosis	H37Rv	-	-	resazurin	MIC bound	-	<6.25 µg/mL
CC(=O)Nc1ccc(S(=O)(=O)Nc2ccc(C(=O)O)c(O)c2)cc1	culture	Mycobacterium tuberculosis	H37Rv	-	-	-	MIC	-	100 µg/mL

Rows are shuffled and stem from different studies. Inhibition is in % at the dose shown (toxicity tests: loss of growth or viability). ICn is the concentration giving n% inhibition. ECn is the concentration giving n% inhibition of infection, replication or growth. A number after MIC or MFC names an inhibition level or a share of isolates. MIC bound: limit read from a one-dose screen.